Values from PubChem BioAssay AID1224833 (University of Georgia, 2016)

Aim: 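Host factors restraining rotavirus as candidate antiviral genes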 (primary screen)
Cell system: monkey MA104 kidney cells
Reagents: siRNA pool against human genes, 50 nM
Duration: 48 h knock-down before infection; read 24 h after infection
Conditions: infection with rotavirus strain RV3 two days after transfection; infectious dose for this stage not given
Detection: 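z-score of rotavirus antigen signal per well, from a fluorescent immunoassay, relative to non-targeting control wells on the same plate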
Direction: z-score vs non-targeting control: higher = more rotavirus replication than with non-targeting control
Hit rule: In these data the active calls have z-score vs non-targeting control at about -1 or lower, or at about 1 or higher
Meaning of the calls: active = z-score beyond 1 either way; inactive = z-score within 1 of zero
Shown is a random part of about 12,000 reagents. In the full data, about 5,600 (46%) got an active call. 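Active calls cover z-scores past 1 in both directions, so they include lowered as well as raised rotavirus replication.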 Entries without a mark were called inactive.

The first 3 entries, ahead of the listing:
Target gene	PubChem SID	z-score vs non-targeting control
SFMBT1 (GeneID 51460)	SID329579077	1.03 (active)
GLE1 (GeneID 2733)	SID329573775	-1.49 (active)
LOXL1 (GeneID 4016)	SID329574319	-0.571

Results, from the first entry:
Target gene	PubChem SID	z-score vs non-targeting control
SFMBT1 (GeneID 51460)	SID329579077	1.03 (active)
GLE1 (GeneID 2733)	SID329573775	-1.49 (active)
LOXL1 (GeneID 4016)	SID329574319	-0.571
CD46 (GeneID 4179)	SID329574413	-0.548
DNMT1 (GeneID 1786)	SID329573429	-1.49 (active)
MICA (GeneID 100507436)	SID329584779	-1.37 (active)
CEP57L1 (GeneID 285753)	SID329583952	0.618
PUS7 (GeneID 54517)	SID329579305	2.76 (active)
TSPAN1 (GeneID 10103)	SID329576965	2.03 (active)
ZDHHC11 (GeneID 79844)	SID329581037	-0.387
EEF1G (GeneID 1937)	SID329573491	-0.504
CHTF18 (GeneID 63922)	SID329580517	-0.0742
TTLL2 (GeneID 83887)	SID329581472	0.367
EDEM2 (GeneID 55741)	SID329579843	-1.1 (active)
GNB5 (GeneID 10681)	SID329577316	-2.01 (active)
HEXD (GeneID 284004)	SID329583860	2.26 (active)
SAFB (GeneID 6294)	SID329575239	-0.665
GSR (GeneID 2936)	SID329573877	-1.95 (active)
OR1N1 (GeneID 138883)	SID329582768	0.867
PDLIM2 (GeneID 64236)	SID329580605	1.1 (active)
NKX3-2 (GeneID 579)	SID329572892	-0.885
CFL1 (GeneID 1072)	SID329573144	-1.88 (active)
OR5V1 (GeneID 81696)	SID329581349	-1.36 (active)
LPAR2 (GeneID 9170)	SID329576459	-1.95 (active)
NAXE (GeneID 128240)	SID329582598	-2.19 (active)
OSBPL10 (GeneID 114884)	SID329582240	-0.551
IER2 (GeneID 9592)	SID329576680	-3.59 (active)
TXNRD1 (GeneID 7296)	SID329575744	-1.99 (active)
BRMS1L (GeneID 84312)	SID329581596	-0.854
POMGNT2 (GeneID 84892)	SID329581758	-0.464
SSBP2 (GeneID 23635)	SID329578100	0.125
TRAF1 (GeneID 7185)	SID329575714	-0.0148
HDGFL1 (GeneID 154150)	SID329583102	-0.98
NCAN (GeneID 1463)	SID329573288	-1.77 (active)
TUBB4B (GeneID 10383)	SID329577123	-1.09 (active)
ACTR3 (GeneID 10096)	SID329576959	0.666
SPATA31E1 (GeneID 286234)	SID329583975	-2.02 (active)
LEP (GeneID 3952)	SID329574290	-1.57 (active)
CD1E (GeneID 913)	SID329573049	-0.477
CASP1 (GeneID 834)	SID329573012	1.09 (active)
DPY30 (GeneID 84661)	SID329581690	-1.14 (active)
MRPL48 (GeneID 51642)	SID329579156	-0.406
LRBA (GeneID 987)	SID329573098	-1.27 (active)
OAZ1 (GeneID 4946)	SID329574689	-1.38 (active)
LPL (GeneID 4023)	SID329574322	0.523
HCFC1R1 (GeneID 54985)	SID329579506	-1.63 (active)
NSG2 (GeneID 51617)	SID329579148	-0.42
KLLN (GeneID 100144748)	SID329584768	0.192
TMEFF2 (GeneID 23671)	SID329578113	-2.02 (active)
EP400 (GeneID 57634)	SID329580328	-0.789
CCL11 (GeneID 6356)	SID329575258	-0.938
ERICH6 (GeneID 131831)	SID329582683	1.06 (active)
OR4K17 (GeneID 390436)	SID329584420	1 (active)
AVPR1B (GeneID 553)	SID329572884	-0.706
SYCP3 (GeneID 50511)	SID329578798	0.197
C20orf96 (GeneID 140680)	SID329582800	-0.309
FAM89A (GeneID 375061)	SID329584247	0.61
ANPEP (GeneID 290)	SID329572770	1.83 (active)
PRPH (GeneID 5630)	SID329574950	-0.202
USP9Y (GeneID 8287)	SID329576043	-1.24 (active)
ATF5 (GeneID 22809)	SID329577661	-1.27 (active)
LZIC (GeneID 84328)	SID329581607	-0.5
TOB1 (GeneID 10140)	SID329576987	-1.61 (active)
ECE2 (GeneID 9718)	SID329576749	1.01 (active)
NANP (GeneID 140838)	SID329582829	-1.66 (active)
CLP1 (GeneID 10978)	SID329577462	-0.633
C8orf34 (GeneID 116328)	SID329582307	-1.58 (active)
IFI6 (GeneID 2537)	SID329573702	-0.385
COX5A (GeneID 9377)	SID329576564	-0.941
ZCCHC14 (GeneID 23174)	SID329577851	-1.92 (active)
CCK (GeneID 885)	SID329573032	-0.59
NIN (GeneID 51199)	SID329578962	-2.82 (active)
SERPINB5 (GeneID 5268)	SID329574822	-1.29 (active)
STRAP (GeneID 11171)	SID329577580	-2.33 (active)
PREB (GeneID 10113)	SID329576970	-0.7
TNNI1 (GeneID 7135)	SID329575684	-1.31 (active)
ARSF (GeneID 416)	SID329572831	1.54 (active)
NMT2 (GeneID 9397)	SID329576575	-0.878
SDF4 (GeneID 51150)	SID329578937	0.149
ATP10A (GeneID 57194)	SID329580202	-2.02 (active)
CFAP107 (GeneID 93190)	SID329582105	0.46
C9orf85 (GeneID 138241)	SID329582756	-0.635
VGLL4 (GeneID 9686)	SID329576728	0.452
RPL22 (GeneID 6146)	SID329575165	1.91 (active)
DBT (GeneID 1629)	SID329573368	-1.23 (active)
KIAA0513 (GeneID 9764)	SID329576778	0.42
SEC61A2 (GeneID 55176)	SID329579615	-0.802
LORICRIN (GeneID 4014)	SID329574317	-0.208
PCDHAC2 (GeneID 56134)	SID329579984	1.12 (active)
NSMCE1 (GeneID 197370)	SID329583376	-1.24 (active)
SEC22C (GeneID 9117)	SID329576429	0.364
DLGAP3 (GeneID 58512)	SID329580428	0.942
GTF2IRD1 (GeneID 9569)	SID329576663	-1.82 (active)
MZT2A (GeneID 653784)	SID329584710	-0.717
DCTN5 (GeneID 84516)	SID329581640	-0.541
TMEM115 (GeneID 11070)	SID329577518	-0.0502
SLC39A8 (GeneID 64116)	SID329580575	-0.717
HOXC8 (GeneID 3224)	SID329574022	0.528
KRTAP5-8 (GeneID 57830)	SID329580395	1.01 (active)
MND1 (GeneID 84057)	SID329581502	-0.168
SLC18A1 (GeneID 6570)	SID329575375	-1.56 (active)
TMEM128 (GeneID 85013)	SID329581816	-0.861
ERV3-1 (GeneID 2086)	SID329573562	-0.867
AKAP6 (GeneID 9472)	SID329576612	-1.54 (active)
LRRC57 (GeneID 255252)	SID329583720	-1.19 (active)
ATP7A (GeneID 538)	SID329572878	-0.503
CCT5 (GeneID 22948)	SID329577743	-1.72 (active)
CCL4L1 (GeneID 388372)	SID329584321	-1.87 (active)
PDZK1IP1 (GeneID 10158)	SID329576999	-1.06 (active)
MAGEB3 (GeneID 4114)	SID329574379	-0.901
